A mixed list of measured activities; the numbers were collected in NIAID ChemDB.

Common to all: growth or infection tests; organism: Varicella zoster virus

ECn is the concentration giving n% inhibition of infection, replication or growth.

CC(=O)Nc1ccc(NC(=S)Nc2ccc(NC(=O)CN3CCCCC3)c(Cl)c2)cc1 ; read-out: inhibition ; cells: HFF ; dose: 10 µg/mL ; read by: ELISA ; strain: ELLEN ; value: 16%
CCCCCc1ccc(-c2cc3cn(C4C[C@H](F)[C@@H](CO)O4)c(=O)nc3o2)cc1 ; read-out: EC50 ; strain: OKA ; value: >2 µM
Cn1cc(C(=O)NCc2ccc(Cl)cc2)c(=O)c2cc(CN3CCOCC3)ccc21 ; read-out: inhibition ; cells: HFF ; dose: 15 µM ; read by: plaque count ; strain: CO varicella isolate ; value: 90%
Nc1ccn([C@@H]2O[C@H](CO)[C@@H](O)[C@@H]2O)c(=O)n1 ; read-out: MIC ; value: 4.4 µg/mL
CC(NC(=S)Nc1ccc(NC(=O)c2nccc3ccccc23)cc1)c1cc2ccccc2o1 ; read-out: EC50 ; cells: HFF ; read by: ELISA ; strain: JAB1233 ; value: 0.16 µg/mL
Nc1nc(N)c2ncn(CCOCP(=O)(O)O)c2n1 ; read-out: EC50 ; cells: HEL ; read by: cytopathic effect ; strain: Oka BVDU-resistant ; value: 4.3 µM
Cc1cn([C@@H]2O[C@H](CO)[C@@H](O)[C@@H]2F)c(=O)nc1N ; read-out: inhibition ; cells: HELF ; dose: 0.1 µg/mL ; read by: plaque count ; strain: Kawaguchi ; value: 100%
COc1cc(OCc2ccccc2)c(NC(=S)Nc2ccc(NC(C)=O)cc2)cc1Cl ; read-out: inhibition ; cells: HFF ; dose: 10 µg/mL ; read by: ELISA ; strain: ELLEN ; value: 105%
CCOC(=O)/C=C/C=C/[C@H]1O[C@@H](n2ccc(=O)[nH]c2=O)[C@H](O)[C@@H]1O ; read-out: EC50 ; cells: HEL ; strain: YS/R ; value: >120 µM
Nc1ccn(C[C@@H](CO)OCP(=O)(O)O)c(=O)n1 ; read-out: EC50 ; cells: HEL ; read by: cytopathic effect ; strain: Oka BVDU-resistant ; value: 0.17 µM
O=c1[nH]c(=O)n([C@H]2C[C@H](O)[C@@H](CO)O2)cc1I ; read-out: inhibition ; cells: HELF ; dose: 10 µg/mL ; read by: plaque count ; strain: Kawaguchi ; value: 100%
O=C(NCc1ccc(Cl)cc1)c1c[nH]c2c(F)cccc2c1=O ; read-out: EC50 ; read by: plaque count ; strain: DIE ; value: 0.6 µM
CCc1cn([C@@H]2O[C@H](CO)[C@@H](O)[C@@H]2O)c(=O)[nH]c1=O ; read-out: inhibition ; cells: HELF ; dose: 100 µg/mL ; read by: plaque count ; strain: YS ; value: 0%
Nc1nc2c(ncn2CCC(CO)CO)c(=O)[nH]1 ; read-out: EC50 ; cells: HEL ; read by: cytopathic effect ; strain: Oka PFA-resistant/A ; value: 6.6 µM
Nc1nc(=O)n([C@@H]2O[C@H](CO)[C@@H](O)[C@@H]2F)cc1I ; read-out: inhibition ; cells: HELF ; dose: 0.01 µg/mL ; read by: plaque count ; strain: KANNO ; value: 67%
O=c1[nH]c(=O)n([C@@H]2O[C@H](CO)[C@@H](O)[C@@H]2O)cc1/C=C/Br ; read-out: EC50 ; cells: HEL ; read by: cytopathic effect ; strain: Oka CF1603-resistant ; value: >57 µM

For reference, 2 entries again:

smiles | read-out | cells | dose | read by | strain | value
CC(NC(=S)Nc1ccc(NC(=O)c2nccc3ccccc23)cc1)c1cc2ccccc2o1 | EC50 | HFF |  | ELISA | JAB1233 | 0.16 µg/mL
O=c1[nH]c(=O)n([C@H]2C[C@H](O)[C@@H](CO)O2)cc1I | inhibition | HELF | 10 µg/mL | plaque count | Kawaguchi | 100%

Blank or dashed fields: not listed here. Neighbouring rows are from separate reports. Percent inhibition refers to the dose given; in toxicity tests it is the harm to the cells.